Experimental data reported in PMC7848973, “In Vivo Efficacy and Metabolism of the Antimalarial Cycleanine and Improved In Vitro Antiplasmodial Activity of Semisynthetic Analogues” (Antimicrobial Agents and Chemotherapy, 2021).

Assays:
[1] = test system: P. falciparum Dd2 chloroquine-resistant strain; assay: In vitro antiplasmodial activity, SYBR green I fluorescence assay; type: cell-based, Plasmodium falciparum; settings: selectivity index = CC50 (HOE) / IC50 against P. falciparum Dd2
Experimental: Normalized fluorescence signals were measured against controls with 1% DMSO (100% growth) and after exposure to a supralethal concentration (10 μM) of chloroquine (0% growth). Determination of the 50% inhibitory concentration (IC50) was performed from a log concentration versus the mean normalized fluorescence signal curve using GraphPad Prism software (v5.0). Each biological replicate consisted of three technical repeats, with three independent biological replicates performed.

[2] = test system: human oral epidermoid carcinoma (KB) cells; assay: Cytotoxicity in KB cells (previous report); type: cell-based; settings: selectivity index = CC50 (KB or HCT-116) / IC50 against P. falciparum W2

| Compound | SI HOE/Dd2 [1] | SI KB/W2 [2] |
| --- | --- | --- |
| COc1cc2c3c4c1Oc1cc5c(cc1O4)C(Cc1ccc(O)c(c1)Oc1ccc(cc1)CC3NCC2)N(C)CC5 (centres unmarked) [2′-Norcocsuline (3), 2′-norcocsuline] | 1.1 |  |
| COc1cc2c3c(c1OC)Oc1ccc(cc1)C[C@H]1c4c(c(CN(C)C)c(OC)c(OC)c4Oc4ccc(cc4)C[C@@H]3N(C)CC2)CCN1C [5-[(Dimethylamino)methyl]cycleanine (4), 5-[(Dimethylamino)methyl]cycleanine] | 14.3 |  |
| C#CCNCc1c2c3c(c(OC)c1OC)Oc1ccc(cc1)C[C@H]1c4c(cc(OC)c(OC)c4Oc4ccc(cc4)C[C@@H]3N(C)CC2)CCN1C [5-[(Propargylamino)methyl]cycleanine (5), 5-[(Propargylamino)methyl]cycleanine] | 17.8 |  |
| COc1cc2c3c(c1O)Oc1ccc(cc1)C[C@@H]1c4c(cc(OC)c(O)c4Oc4ccc(cc4)C[C@H]3N(C)CC2)CCN1C [Isochondodendrine (2), isochondodendrine] | 1.7 |  |
| cycleanine |  | >133 |
